Anti-infective test results gathered from many reports (values: NIAID ChemDB through PubChem).

Shared fields: toxicity to cultured cells; cell line: HEL; measure: CC50

Neighbouring rows are from separate reports. CCn: concentration that lowers growth or viability of the cells by n%.

O=S(=O)(Cc1ccccc1)c1c(Cl)ccc[n+]1[O-] ; value: 1.5 µg/mL
Nc1ccn(C[C@@H](CO)OCP(=O)(O)O)c(=O)n1 ; value: 50 µg/mL
Cc1cccc(CS(=O)(=O)c2cccc[n+]2[O-])c1 ; value: 23 µg/mL
CCCCCCc1cc2cn([C@H]3C[C@H](O)[C@@H](CO)O3)c(=O)nc2o1 ; value: >200 µM
CCCOc1ccc(-c2cc3cn([C@H]4C[C@H](O)[C@@H](CO)O4)c(=O)nc3o2)cc1 ; value: >200 µM
CC(C)(C)OC(=O)C1(Cc2ccccc2)CCN1C(=O)OCc1ccccc1 ; value: 34 µM
O=C1c2ccccc2C(=O)N1CCCC12CC3CC(CC(C3)C1)C2 ; value: 30 µg/mL
[O-][n+]1ccccc1SCc1ccccc1 ; value: >50 µg/mL
O=C(COc1cccc2ccccc12)NN=CCc1ccccc1 ; value: 100 µg/mL
Cc1ccn2c(CSCc3ccccc3)c(-c3ccco3)nc2c1 ; value: >50 µg/mL
CCCCc1cc2cn(COCCO)c(=O)nc2o1 ; value: >200 µM
O=c1[nH]c(=O)n([C@H]2C[C@H](O)[C@@H](CO)O2)cc1C#CCCCCCCCCCBr ; value: 97 µM
CCCCc1cc2cnc(OC3CCCC3)nc2o1 ; value: 108 µM
CCCCCCCCCC#Cc1cc2cn(COCCO)c(=O)nc2o1 ; value: >50 µM
CCCCCCCCC#Cc1cn(S(=O)(=O)c2ccc(C)cc2)c(=O)[nH]c1=O ; value: 31 µM
O=c1c2ncn(COC(CO)CO)c2nc2[nH]c(-c3ccccc3)cn12 ; value: >200 µg/mL
Cc1cc(I)cn2c(CSCCc3ccccc3)cnc12 ; value: >50 µg/mL
CC1(C)[C@@H](CO)CC[C@@]1(C)Cn1nnc2c(N)ncnc21 ; value: >50 µg/mL
COc1ccc(C=NNC(=O)COc2cccc3ccccc23)cc1OC ; value: 52.6 µg/mL
Cc1ccc[n+]([O-])c1S(=O)(=O)Cc1ccccc1Cl ; value: 21 µg/mL
O=C1c2ccccc2NS(=O)(=O)N1COCCO ; value: 160 µg/mL
Cc1ccc[n+]([O-])c1S(=O)(=O)Cc1ccccc1 ; value: 28 µg/mL
CC(O)CC#CC#Cc1cn([C@H]2C[C@H](O)[C@@H](CO)O2)c(=O)[nH]c1=O ; value: 9.5 µM
CCCCCCCCCCCCc1cc2cn([C@H]3C[C@H](O)[C@@H](CO)O3)c(=O)nc2o1 ; value: >200 µM
O=c1[nH]c(=O)n([C@H]2C[C@H](O)[C@@H](CO)O2)cc1C#CC#Cc1ccccn1 ; value: 1.5 µM
CCC(c1cc(C)ccc1C)S(=O)(=O)c1c(C)ccc[n+]1[O-] ; value: 20 µg/mL
Cc1ccn2c(CSCc3ccccc3)c(-c3ccccn3)nc2c1 ; value: 50 µg/mL
O=S(Cc1cccc(C(F)(F)F)c1)c1cccc[n+]1[O-] ; value: 54 µg/mL
Cc1cc(-c2cccs2)cn2c(CSCCc3ccccc3)cnc12 ; value: 32 µg/mL
CCOc1ccccc1CS(=O)(=O)c1cccc[n+]1[O-] ; value: 37 µg/mL
Cc1ccn2c(CSCc3ccccc3)c(C(F)(F)F)nc2c1 ; value: >50 µg/mL
CCCCCCCC#Cc1cn(S(=O)(=O)c2ccc(C)cc2)c(=O)[nH]c1=O ; value: 98 µM
CC(=O)O[C@@H]1CC[C@H](O)[C@@]2(C)CC/C(C(C)C)=C\C=C(/C)CCC1O2 ; value: >50 µg/mL
CCCCCCc1ccc(C#CC#Cc2cn([C@H]3C[C@H](O)[C@@H](CO)O3)c(=O)[nH]c2=O)cc1 ; value: 35 µM
Cc1ccc(C)c(CS(=O)(=O)c2c(O)ccc[n+]2[O-])c1 ; value: >20 µg/mL
CCCCCCCCc1cc2cn([C@H]3C[C@H](O)[C@@H](CO)O3)c(=O)nc2s1 ; value: 53 µM
CCCCCOc1ccc(-c2cc3cn([C@H]4C[C@H](O)[C@@H](CO)O4)c(=O)nc3o2)cc1 ; value: >200 µM
CCCCCCc1cc2cn(CCC(C)C)c(=O)nc2o1 ; value: >200 µM
CCCCCCc1cc2cn([C@H]3C[C@H](O)[C@@H](CO)O3)c(=O)nc2[nH]1 ; value: >50 µM
O=c1nc2oc(CCCCCCCCCF)cc2cn1[C@H]1C[C@H](O)[C@@H](CO)O1 ; value: 200 µM
O=c1c2ncn([C@@H]3O[C@H](CO)[C@@H](O)[C@H]3O)c2[nH]c2nccn12 ; value: >90 µg/mL
Cc1ccn2c(CSCCc3ccccc3)c(-c3cccs3)nc2c1 ; value: 14 µg/mL
CCCOCN1c2ccccc2C(=O)NS1(=O)=O ; value: >50 µg/mL
O=c1nc2oc(-c3ccccc3)cc2cn1[C@H]1C[C@H](O)[C@@H](CO)O1 ; value: >200 µM
Cc1ccn2c(CSCc3ccccc3)c(C3CC3C)nc2c1 ; value: >50 µg/mL
O=c1nc2oc(CCCCCCCCCCl)cc2cn1[C@H]1C[C@H](O)[C@@H](CO)O1 ; value: 200 µM
CCCCCCCCCCc1cc2cn([C@H]3C[C@H](O)[C@@H](CO)O3)c(=O)nc2o1 ; value: >50 µM
O=C1c2ccccc2N(Cc2ccccc2)S(=O)(=O)N1COCc1ccccc1 ; value: ≥40 µg/mL
Cc1cc(-c2ccsc2)cn2c(CSCCc3ccccc3)cnc12 ; value: >50 µg/mL
CCCCCCc1cc2cn(COCCO)c(=O)nc2o1 ; value: >200 µM
C[C@H](NC(=O)N1C(=O)C[C@@]1(Cc1ccccc1)C(=O)OC(C)(C)C)c1ccccc1 ; value: 184 µM
Nc1nc(N)c2ncn([C@H]3CCC[C@H]3CO)c2n1 ; value: >50 µg/mL
O=C1c2ccccc2NS(=O)(=O)N1Cc1ccccc1 ; value: >50 µg/mL
CCCCCCCCCc1cc2cn(COCCO)c(=O)nc2o1 ; value: ≥100 µM
CCCCCCCc1cc2cnc(=O)[nH]c2o1 ; value: >200 µM
O=C1c2ccccc2[C@@]2(O)C3C4C[C@H]5CC(C[C@H]3C5)C4N12 ; value: 73 µg/mL
CCCCCC#Cc1cn(S(=O)(=O)c2ccc(C)cc2)c(=O)[nH]c1=O ; value: 134 µM
CC1=C[C@H](n2cnc3c(N)ncnc32)C[C@@]1(CO)c1ccccc1 ; value: >100 µg/mL
Cc1ccn2c(CSCc3ccccc3)c(C34CC5CC(CC(C5)C3)C4)nc2c1 ; value: 10 µg/mL
Nc1ccn(C[C@@H](CO)OCP(=O)(O)O)c(=O)n1 ; value: 360 µM
CCCCCCCc1cc2cn(COCCO)c(=O)nc2o1 ; value: 140 µM
CCOC(Cn1c(N)nc2c(ncn2[C@@H]2O[C@H](CO)[C@@H](O)[C@H]2O)c1=O)OCC ; value: >90 µg/mL
N#C/C(=C/c1c(Cl)cccc1Cl)S(=O)(=O)c1cccc[n+]1[O-] ; value: 3.4 µg/mL
CC(C)(C)OC(=O)C1(Cc2ccccc2)CC(=O)N1C(=O)OCc1ccccc1 ; value: 36 µM
Cc1ccc(C)c(CS(=O)(=O)c2ccccn2)c1 ; value: 51 µg/mL
O=C(COc1cccc2ccccc12)NN=Cc1ccccc1 ; value: 64.5 µg/mL
CCCCCCc1ccc(-c2cc3cn(C4CC[C@@H](CO)O4)c(=O)nc3o2)cc1 ; value: >200 µM
O=S(=O)(Cc1ccccc1)c1ncccc1O ; value: >20 µg/mL
O=c1nc2oc(-c3ccccc3)cc2cn1C1CC[C@@H](CO)O1 ; value: >200 µM
C/C(=C\CC/C(C)=C/Cc1cc(O)cc(C)c1O)CC/C=C(\C)CC[C@@H](C)C(C)(C)O ; value: 7.7 µM
COc1ccc(CSc2cc(C(C)(C)C)cc[n+]2[O-])cc1 ; value: 48 µg/mL
O=C(C1CCCCC1)N(O)c1ccc(Cl)cc1 ; value: 28 µg/mL
Cc1ccn2c(CSCc3ccccc3)c(C(C)(C)C)nc2c1 ; value: 11 µg/mL
CCOC(Cn1c(N)nc2c(ncn2COC(CO)CO)c1=O)OCC ; value: >90 µg/mL
CCCCCCc1cc2cn(COCCO)c(=O)nc2[nH]1 ; value: >200 µM
COC(=O)C(c1ccccc1C)S(=O)c1cccc[n+]1[O-] ; value: 4.6 µg/mL
CCCCCCCCc1cc2cn([C@H]3C[C@H](O)[C@@H](CO)O3)c(=O)nc2o1 ; value: >50 µM
Nc1nc(N)c2ncn(CC(CO)OCP(=O)(O)O)c2n1 ; value: >200 µg/mL
O=S(=O)(Cc1c(Cl)cccc1Cl)c1cccc[n+]1[O-] ; value: 15 µg/mL
CCCc1ccc(-c2cc3cn(C4CC[C@@H](CO)O4)c(=O)nc3o2)cc1 ; value: >200 µM
Nc1nc2c(ncn2C[C@H]2CCC[C@H]2CO)c(=O)[nH]1 ; value: >50 µg/mL
Cc1ccc(C)c(C(Cc2ccccc2)S(=O)(=O)c2cccc[n+]2[O-])c1 ; value: 19 µg/mL
Nc1nccc2c1ncn2C[C@@H](CO)OCP(=O)(O)O ; value: 90 µM
Cc1c(Cl)c(Cl)c(CS(=O)(=O)c2cccc[n+]2[O-])c(Cl)c1Cl ; value: 2 µg/mL
O=c1[nH]c(=O)n([C@H]2C[C@H](O)[C@@H](CO)O2)cc1C#CC#CCC1CCCC1 ; value: 89 µM
Cc1ccc(-c2cc3cn([C@H]4C[C@H](O)[C@@H](CO)O4)c(=O)nc3o2)cc1 ; value: >200 µM
CCCCCCc1cc2cn(C3CCCO3)c(=O)nc2o1 ; value: >200 µM
CCCCCC#Cc1c[nH]c(=O)[nH]c1=O ; value: 114 µM
C[C@H](NC(=O)N1C(=O)C[C@]1(Cc1ccccc1)C(=O)O)c1ccccc1 ; value: >200 µM
Cc1cc(-c2cccc([N+](=O)[O-])c2)cn2c(CSCCc3ccccc3)cnc12 ; value: 43 µg/mL
CC(C)CS[C@H]1C[C@@H](n2cnc3c(N)ncnc32)[C@H](O)[C@@H]1O ; value: >200 µg/mL
Nc1nc2ncn(CCOCP(=O)(O)O)c2c(=O)[nH]1 ; value: 7 µg/mL
CCCCCCCOc1ccc(-c2cc3cn([C@H]4C[C@H](O)[C@@H](CO)O4)c(=O)nc3o2)cc1 ; value: >200 µM
Nc1nc2c(ncn2COC(CO)CO)c(=O)[nH]1 ; value: 90 µg/mL
O=c1[nH]c(=O)n([C@H]2C[C@H](O)[C@@H](CO)O2)cc1/C=C/Br ; value: >400 µM
CC1(C)[C@@H](CO)CC[C@@]1(C)Cn1cnc2c(Cl)ncnc21 ; value: >50 µg/mL
C[C@H](NC(=O)[C@]1(Cc2ccccc2)CCN1C(=O)OCc1ccccc1)C(=O)N[C@@H](Cc1ccccc1)C(=O)N[C@@H](C)N ; value: >100 µM
Nc1ncc2ncn([C@H]3CCC[C@H]3CO)c2n1 ; value: >50 µg/mL
CCCCCCCCCCCCc1cc2cn([C@H]3C[C@H](O)[C@@H](CO)O3)c(=O)nc2s1 ; value: 49 µM
Nc1ncnc2c1ncn2C[C@@H](CO)OCP(=O)(O)O ; value: 57 µM
COc1cc(C=NNC(=O)COc2cccc3ccccc23)cc(OC)c1O ; value: 52.8 µg/mL
CC1(C)[C@@H](CO)CC[C@@]1(C)Cn1cnc2c(N)ncnc21 ; value: >50 µg/mL
O=C(CCC1CCCCC1)N(O)c1ccc(Cl)cc1 ; value: 4.7 µg/mL
Cc1cc(I)c2ncc(CSCCc3ccccc3)n2c1 ; value: >50 µg/mL
Cc1ccccc1C(C(N)=O)S(=O)c1cccc[n+]1[O-] ; value: >20 µg/mL
CCCCCCCCCc1cc2cn([C@H]3C[C@H](O)[C@@H](CO)O3)c(=O)nc2o1 ; value: >200 µM
CCCCCc1cc2cn(COCCO)c(=O)nc2o1 ; value: >200 µM
CC1=C[C@H](n2ccc(N)nc2=O)C[C@@]1(CO)c1ccccc1 ; value: >100 µg/mL
COc1ccc(C=NNC(=O)COc2cccc3ccccc23)cc1O ; value: 27.7 µg/mL
CCCCCC#Cc1cc2cn(COCCO)c(=O)nc2o1 ; value: >50 µM

Repeating the final 8 entries:

smiles | value
O=C(CCC1CCCCC1)N(O)c1ccc(Cl)cc1 | 4.7 µg/mL
Cc1cc(I)c2ncc(CSCCc3ccccc3)n2c1 | >50 µg/mL
Cc1ccccc1C(C(N)=O)S(=O)c1cccc[n+]1[O-] | >20 µg/mL
CCCCCCCCCc1cc2cn([C@H]3C[C@H](O)[C@@H](CO)O3)c(=O)nc2o1 | >200 µM
CCCCCc1cc2cn(COCCO)c(=O)nc2o1 | >200 µM
CC1=C[C@H](n2ccc(N)nc2=O)C[C@@]1(CO)c1ccccc1 | >100 µg/mL
COc1ccc(C=NNC(=O)COc2cccc3ccccc23)cc1O | 27.7 µg/mL
CCCCCC#Cc1cc2cn(COCCO)c(=O)nc2o1 | >50 µM